Laboratory results taken from patent US20040266723A1, “Antiviral agents for treatment of Flaviviridae infections” (priority 2000, published 2004).

System: BVDV
Test: BVDV real time RT-PCR antiviral assay in MDBK cells
Assay type: cell-based, Bovine viral diarrhea virus (BVDV), strain NADL
Details: MDBK CC50 24 hrs / antiviral EC90 24 hrs
Method: As one illustration of this method, in the case of BVDV in MDBK cells, in a first step, viral RNA is isolated from 140 μL of the cell culture supernatant by means of a commercially available column (Viral RNA extraction kit, QiaGen, CA). The viral RNA is then eluted from the column to yield a total volume of 60 μL, and subsequently amplified with a quantitative RT-PCR protocol using a suitable primer for the BVDV NADL strain. A quenched fluorescent probe molecule is hybridized to the BVDV DNA, which then undergoes exonucleolytic degradation resulting in a detectable fluorescent signal. Therefore, the RT-PCR amplified DNA was detected in real time by monitoring the presence of fluorescence signals. The TaqMan probe molecule (5′ 6-fam-[…]-tamara 3′ [Sequence ID No. 7] and primers (sense: 5′-[…]-3′ [Sequence ID No. 8]; and antisense: 5′-[…]-3′ [Sequence ID No. 9]) were designed with the aid of the Primer Express software (PE-Applied Biosystems) to be complementary to the BVDV NADL NS5B region. A total of 10 μL of RNA was analyzed in a 50 μL RT-PCR mixture. Reagents and conditions used in quantitative PCR were purchased from PE-Applied Biosystems. The standard curve that was created using the undiluted inoculum virus ranged from 6000 plaque forming units (PFU) to 0.6 PFU per RT-PCR mixture.
Maldin-Darby bovine kidney (MDBK) cells were grown and maintained in a modified eagle medium (DMEM/F12; GibcoBRL), supplemented with 10% heat inactivated horse serum at 37° C. in a humidified, 5% CO2, incubator.
Bovine viral diarrhea virus (BVDV), strain NADL, causes a cytopathogenic effect (CPE) after infection of these cells.
Cells that were not treated with a test compound were considered a negative control, while ribavirin served as a positive control. Viral RNA was extracted and analyzed by real time RT-PCR.
Controls were Ribavirin and the polyoxymetalate HPA-023 in these experiments.

Structure (SMILES) | Selectivity Index (24 hrs/24 hrs) CC50/EC90
COc1c(C)c2c(c(O)c1CCO)C(=O)OC2 [C2-MPAlcohol, 6-(2-hydroxyethyl)-7-hydroxy-5-methoxy-4-methylphthalan-1-one] | 4
COc1c(C)c2c(c(O)c1CC=O)C(=O)OC2 [C2-MPAld] | 1
COc1c(C)c2c(c(O)c1C/C=C(\C)C=O)C(=O)OC2 [C4-MPAld] | 1
COc1c(C)c2c(c(O)c1C/C=C(\C)CCCOP(=O)(O)CP(=O)(O)OC[C@H]1O[C@@H](n3cnc4c(N)ncnc43)[C@H](O)[C@@H]1O)C(=O)OC2 [C6-MAD] | 1
NC(=O)c1cccc([C@@H]2O[C@H](COP(=O)(O)CP(=O)(O)OCC3OC(n4cnc5c(N)ncnc54)C(F)C3O)[C@@H](O)[C@H]2O)c1 (stereo partly shown) [F-ara-CH2-BAD] | 1
NC(=O)c1ncn([C@H]2O[C@@H](CO)[C@H](O)[C@@H]2O)n1 [L-Ribavirin] | 1
COC(=O)CC/C(C)=C/Cc1c(O)c2c(c(C)c1OC)COC2=O [MPA-O-Me] | >100
